The text below walks through data of PMC11661117 (bioRxiv, 2025).

Some results come without the dose or concentration used. Where only a bound is given, the exact number is not on record here.

The series concerns HSV-1 strain K26 (GFP-expressing). The experiment in a line: Comparison of pooled IC50 values in 2D. In kind it is cell-based. Particulars: for difference in average potency between models (2D versus 3D): cell types and 2D:3D growth environment combined; for difference in potency for all models: discussion.

On to `Cc1cccc(C)c1N(CC(=O)Nc1ccc(-c2ncon2)cc1)C(=O)C1CCS(=O)(=O)CC1` [Amenamevir], for which the “difference in average potency between models (2D versus 3D)” value (“difference … (2D versus 3D)” for short) is listed as less than 3 fold and the “difference in potency for all models” value is recorded as less than 2 fold.
Take `Nc1ccn([C@@H]2O[C@H](CO)[C@@H](O)C2(F)F)c(=O)n1` [Gemcitabine]: the “difference … (2D versus 3D)” value is recorded as less than 3 fold and the “difference in potency for all models” value is on record as less than 2 fold.
For `CC(=O)O[C@H]1C[C@H](O[C@H]2[C@@H](O)C[C@H](O[C@H]3[C@@H](O)C[C@H](O[C@H]4CC[C@@]5(C)[C@H](CC[C@@H]6[C@@H]5C[C@@H](O)[C@]5(C)[C@@H](C7=CC(=O)OC7)CC[C@]65O)C4)O[C@@H]3C)O[C@@H]2C)O[C@H](C)[C@H]1O[C@@H]1O[C@H](CO)[C@@H](O)[C@H](O)[C@H]1O` [Lanatoside C] the same measures were less than 3 fold and less than 2 fold.
For the molecule `Cc1nc(N(C)C(=O)Cc2ccc(-c3ccccn3)cc2)sc1S(N)(=O)=O` [Pritelivir], the “difference … (2D versus 3D)” value was less than 3 fold and the “difference in potency for all models” value is given as less than 2 fold.
For `CC1(C)CC(=O)c2c(C(F)(F)F)nn(-c3ccc(C(N)=O)c(N[C@H]4CC[C@H](O)CC4)c3)c2C1` [SNX-2112] the same measures were less than 3 fold and less than 2 fold.
For Fluoroemetine, the “difference … (2D versus 3D)” value is listed as less than 3 fold.
